Anti-infective test results gathered from many reports (values: NIAID ChemDB through PubChem).

Shared fields: enzyme or target tests

Blank or dashed fields: not listed here. ICn is the concentration giving n% inhibition. Conditions beyond the fields shown may differ between rows. Fold resistance has wild type as its base. Percent inhibition refers to the dose given; in toxicity tests it is the harm to the cells.

SMILES,changes,protein,method,measure,tested at,result
O=S(=O)(c1cccc2cnccc12)N1CCNCC1,-,Protein kinase C,nucleotide incorporation,inhibition,20 µg/mL,39.1%
CCCCCCCCCC1N=C(N)N2CCCC2=C1C(=O)OCCCCN=C(N)N,-,Protein kinase C,-,IC50,-,9.6 µM
C[C@@H]1Cc2c(-c3cc(-c4ccc5ccccc5c4O)c(O)c4ccccc34)c(O)cc(O)c2[C@@H](C)N1,-,Protein kinase C,-,IC50,-,30 µM
O=S(=O)(c1cccc2cnccc12)N1CCNCC1,-,Protein kinase C,nucleotide incorporation,inhibition,100 µg/mL,64.4 ± 8%
O=C(/C=C/c1ccc2ccccc2n1)/C=C/c1ccc2ccccc2n1,-,Nuclear factor-kappa B,-,IC50,-,3.95 µM
CN(C)CCCN1c2cc(Cl)ccc2Sc2cc(O)c(O)cc21,-,gp120,-,IC50,-,200 µg/mL
Cn1c2ccccc2c(=O)c2c(O)cccc21,-,Protein kinase C,nucleotide incorporation,inhibition,0.16 µg/mL,12.1%
O=C(/C=C/c1ncc(F)cc1F)/C=C/c1ncc(F)cc1F,-,Nuclear factor-kappa B,-,IC50,-,0.78 µM
O=C(O[C@H]1Cc2c(O)cc(O)cc2O[C@@H]1c1cc(O)c(O)c(O)c1)c1cc(O)c(O)c(O)c1,-,CXCR4,ELISA,inhibition,20 µM,22%
Cc1cccnc1/C=C/C(=O)/C=C/c1ncccc1C,-,Nuclear factor-kappa B,-,IC50,-,1.06 µM
CCCCCCC[C@H]1CC2CCC3C(C(=O)OCCCCCCCCCC4N=C(N)N5CCCC5=C4C(=O)OCCCCN=C(N)N)=C(C)NC(=N1)N23,-,Protein kinase C,-,IC50,-,1.5 µM
Clc1cc(CN2CCCNCCNCCCNCC2)cc(Cl)n1,CXCR4-D193N,CXCR4,-,fold resistance,-,0.81
O=C(Oc1cc(O)cc2c1C[C@@H](OC(=O)c1cc(O)c(O)c(O)c1)[C@@H](c1cc(O)c(O)c(O)c1)O2)c1cc(O)c(O)c(O)c1,-,CXCR4,ELISA,IC50,-,>20 µM
C#Cc1cccnc1/C=C/C(=O)/C=C/c1ncccc1C#C,-,Nuclear factor-kappa B,-,IC50,-,1.2 µM
O=C(O[C@@H]1Cc2c(O)cc(O)cc2O[C@@H]1c1cc(O)c(O)c(O)c1-c1c([C@H]2Oc3cc(O)cc(O)c3C[C@H]2OC(=O)c2cc(O)c(O)c(O)c2)cc(O)c(O)c1O)c1cc(O)c(O)c(O)c1,-,CXCR4,ELISA,inhibition,20 µM,2%
Cn1ccc2ccc(C(=O)N3C[C@@H](CN4CCC(c5ccccc5)CC4)[C@H](c4ccsc4)C3)cc21,-,CCR3,-,IC50,-,0.0008 µM
Cn1c2ccccc2c(=O)c2c(O)cccc21,-,Protein kinase C,nucleotide incorporation,inhibition,0.16 µg/mL,12.1%
CC1=C(CC/C(C)=C/CC/C(C)=C/CCC2=CCOC2=O)C(C)(C)CCC1=O,-,p56lck tyrosine kinase,ELISA,inhibition,500 µM,55%

Again, the opening 2 rows:

O=S(=O)(c1cccc2cnccc12)N1CCNCC1 ; protein: Protein kinase C ; method: nucleotide incorporation ; measure: inhibition ; tested at: 20 µg/mL ; result: 39.1%
CCCCCCCCCC1N=C(N)N2CCCC2=C1C(=O)OCCCCN=C(N)N ; protein: Protein kinase C ; measure: IC50 ; result: 9.6 µM